Experiment [1] concerns the target T1, Nicotinic acetylcholine receptor alpha6/alpha3/beta4 (Rattus norvegicus) (UniProt P04757+P12392+P43143). Nature of the experiment: Inhibition of rat alpha6/alpha3beta4 nAChR expressed in Xenopus laevis oocytes assessed as inhibition of acetylcholine-induced current response at 10 uM measured after 5 min by two-electrode voltage-clamp method relative to control. The format is cell-based. As to conditions: Oocyte. In general terms: Two-electrode voltage clamp is typically applied to oocytes expressing channels or transporters.

Sequences of proteins named here, by UniProt entry; tags and fusion partners are left off.
UniProt P04757, whole entry, looked up: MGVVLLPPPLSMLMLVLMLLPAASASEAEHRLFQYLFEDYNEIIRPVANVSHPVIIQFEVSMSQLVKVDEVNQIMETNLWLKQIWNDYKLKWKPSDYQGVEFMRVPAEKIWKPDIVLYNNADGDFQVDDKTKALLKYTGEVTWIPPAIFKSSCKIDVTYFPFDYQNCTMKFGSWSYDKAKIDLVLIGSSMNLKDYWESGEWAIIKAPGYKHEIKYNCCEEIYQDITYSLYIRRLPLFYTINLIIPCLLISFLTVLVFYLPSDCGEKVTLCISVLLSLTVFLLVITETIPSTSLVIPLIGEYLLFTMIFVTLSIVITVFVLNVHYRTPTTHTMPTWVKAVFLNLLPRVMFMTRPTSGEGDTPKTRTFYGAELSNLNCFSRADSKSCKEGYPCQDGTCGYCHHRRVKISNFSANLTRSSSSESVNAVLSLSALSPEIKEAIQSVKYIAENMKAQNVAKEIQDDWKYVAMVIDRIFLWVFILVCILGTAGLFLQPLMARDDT
UniProt P12392, whole entry, looked up: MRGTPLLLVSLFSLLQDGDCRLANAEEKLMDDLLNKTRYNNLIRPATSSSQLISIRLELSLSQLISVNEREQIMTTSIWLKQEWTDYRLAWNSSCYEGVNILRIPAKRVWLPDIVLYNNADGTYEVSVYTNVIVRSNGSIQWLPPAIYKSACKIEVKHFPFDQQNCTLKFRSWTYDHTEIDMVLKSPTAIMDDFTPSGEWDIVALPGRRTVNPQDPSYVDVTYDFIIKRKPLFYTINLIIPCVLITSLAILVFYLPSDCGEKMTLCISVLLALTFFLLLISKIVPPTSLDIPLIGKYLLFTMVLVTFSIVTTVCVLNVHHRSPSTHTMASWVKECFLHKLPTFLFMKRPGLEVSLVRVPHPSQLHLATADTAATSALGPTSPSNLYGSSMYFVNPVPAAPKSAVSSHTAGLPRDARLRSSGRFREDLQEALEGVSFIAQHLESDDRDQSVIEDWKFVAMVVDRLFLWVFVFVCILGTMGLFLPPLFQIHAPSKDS
UniProt P43143, whole entry, looked up: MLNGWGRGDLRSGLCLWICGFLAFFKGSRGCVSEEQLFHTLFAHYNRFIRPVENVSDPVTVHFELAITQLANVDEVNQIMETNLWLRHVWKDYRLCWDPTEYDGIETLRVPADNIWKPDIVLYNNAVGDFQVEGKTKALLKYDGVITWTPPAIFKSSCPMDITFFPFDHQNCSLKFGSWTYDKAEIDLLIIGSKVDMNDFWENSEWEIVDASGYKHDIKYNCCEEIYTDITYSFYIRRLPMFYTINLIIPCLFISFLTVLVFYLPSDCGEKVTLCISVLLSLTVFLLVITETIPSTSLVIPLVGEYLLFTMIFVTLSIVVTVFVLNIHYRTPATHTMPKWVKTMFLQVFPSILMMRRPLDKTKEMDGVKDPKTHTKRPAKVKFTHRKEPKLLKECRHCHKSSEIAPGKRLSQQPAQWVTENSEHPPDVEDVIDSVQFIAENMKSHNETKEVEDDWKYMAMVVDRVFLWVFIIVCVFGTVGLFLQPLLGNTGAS
UniProt P30926, whole entry, looked up: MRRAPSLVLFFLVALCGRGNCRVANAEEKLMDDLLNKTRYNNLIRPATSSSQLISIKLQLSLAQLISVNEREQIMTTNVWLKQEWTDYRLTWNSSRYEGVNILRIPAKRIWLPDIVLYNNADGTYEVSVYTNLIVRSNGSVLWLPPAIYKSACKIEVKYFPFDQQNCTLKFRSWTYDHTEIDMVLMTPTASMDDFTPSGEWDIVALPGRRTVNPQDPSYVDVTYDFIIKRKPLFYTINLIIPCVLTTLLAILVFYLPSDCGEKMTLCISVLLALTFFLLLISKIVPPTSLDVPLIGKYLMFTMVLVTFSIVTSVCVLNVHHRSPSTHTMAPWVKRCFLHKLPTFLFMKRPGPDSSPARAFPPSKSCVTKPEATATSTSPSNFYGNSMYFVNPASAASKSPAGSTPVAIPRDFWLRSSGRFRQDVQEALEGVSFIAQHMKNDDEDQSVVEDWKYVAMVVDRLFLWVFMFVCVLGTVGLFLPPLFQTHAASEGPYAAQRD
UniProt P32297, whole entry, looked up: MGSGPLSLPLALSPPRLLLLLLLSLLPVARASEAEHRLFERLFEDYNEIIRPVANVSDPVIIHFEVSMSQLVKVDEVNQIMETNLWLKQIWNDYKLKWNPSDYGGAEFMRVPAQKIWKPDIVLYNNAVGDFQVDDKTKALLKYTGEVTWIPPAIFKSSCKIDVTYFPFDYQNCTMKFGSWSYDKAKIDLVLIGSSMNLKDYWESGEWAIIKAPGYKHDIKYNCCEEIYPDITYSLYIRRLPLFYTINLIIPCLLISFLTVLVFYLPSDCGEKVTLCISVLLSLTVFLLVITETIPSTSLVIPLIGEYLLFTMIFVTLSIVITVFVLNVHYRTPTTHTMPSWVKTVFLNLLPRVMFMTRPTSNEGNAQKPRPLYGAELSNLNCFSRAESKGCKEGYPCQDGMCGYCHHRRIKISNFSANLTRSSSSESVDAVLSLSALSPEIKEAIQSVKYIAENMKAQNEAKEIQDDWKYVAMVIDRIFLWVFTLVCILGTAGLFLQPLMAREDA
UniProt Q15825, whole entry, looked up: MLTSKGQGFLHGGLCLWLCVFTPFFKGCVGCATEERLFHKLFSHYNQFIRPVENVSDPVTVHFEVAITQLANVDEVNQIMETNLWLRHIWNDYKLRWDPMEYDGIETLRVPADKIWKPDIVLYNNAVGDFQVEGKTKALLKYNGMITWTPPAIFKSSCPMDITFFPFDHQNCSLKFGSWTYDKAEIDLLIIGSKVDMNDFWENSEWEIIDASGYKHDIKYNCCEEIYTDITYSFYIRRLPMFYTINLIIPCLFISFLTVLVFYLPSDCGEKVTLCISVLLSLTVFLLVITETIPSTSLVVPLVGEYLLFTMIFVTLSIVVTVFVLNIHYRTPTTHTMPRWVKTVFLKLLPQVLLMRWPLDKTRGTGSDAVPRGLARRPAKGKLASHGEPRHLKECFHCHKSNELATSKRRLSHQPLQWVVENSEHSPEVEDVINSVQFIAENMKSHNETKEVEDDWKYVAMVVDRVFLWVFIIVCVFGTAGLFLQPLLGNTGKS

The target in experiment [2] is T1, Nicotinic acetylcholine receptor alpha6/alpha3/beta4 (Rattus norvegicus). Nature of the experiment: Inhibition of rat alpha6/alpha3beta4 nAChR expressed in Xenopus laevis oocytes assessed as inhibition of acetylcholine-induced current response measured after 5 min by two-electrode voltage-clamp method relative to peIA. The format is cell-based. Particulars: Oocyte.

Experiment [3] shares this target. Nature of the experiment: Inhibition of rat alpha6/alpha3beta4 nAChR expressed in Xenopus laevis oocytes assessed as inhibition of acetylcholine-induced current response at 10 uM in presence of peIA by two-electrode voltage-clamp method relative to control. As to conditions: Oocyte. It is filed as cell-based.
Experiment [4] concerns the target T2, Nicotinic acetylcholine receptor alpha6/alpha3/beta4 (Homo sapiens, UniProt P30926+P32297+Q15825). Nature of the experiment: Inhibition of human alpha6/alpha3beta4 nAChR expressed in Xenopus laevis oocytes assessed as inhibition of acetylcholine-induced current response measured after 5 min by two-electrode voltage-clamp relative to peIA. The format is cell-based. As to conditions: Oocyte.

For experiment [5], the species on record is Rattus norvegicus. Description: Selectivity ratio of IC50 for rat alpha6beta4 nAChR to IC50 for rat alpha6/alpha3beta4 nAChR expressed in Xenopus laevis oocytes.
Experiment [6] has as its target T2, Nicotinic acetylcholine receptor alpha6/alpha3/beta4. Description: Inhibition of human alpha6/alpha3beta4 nAChR expressed in Xenopus laevis oocytes assessed as inhibition of acetylcholine-induced current response by measuring fold change measured after 5 min by two-electrode voltage-clamp method relative to peIA. The format is cell-based. As to conditions: Oocyte.

Experiment [7] concerns the target T1, Nicotinic acetylcholine receptor alpha6/alpha3/beta4 (Rattus norvegicus). Description: Inhibition of rat alpha6/alpha3beta4 nAChR expressed in Xenopus laevis oocytes assessed as inhibition of acetylcholine-induced current response by measuring fold change measured after 5 min by two-electrode voltage-clamp method relative to peIA. It is filed as cell-based. Particulars: Oocyte.

Experiment [8] addresses T2, Nicotinic acetylcholine receptor alpha6/alpha3/beta4. Description: Inhibition of human alpha6/alpha3beta4 nAChR expressed in Xenopus laevis oocytes assessed as inhibition of acetylcholine-induced current response at 10 uM in presence of peIA by two-electrode voltage-clamp method relative to control. As to conditions: Oocyte.
For experiment [9] the target is unchanged. Description: Inhibition of human alpha6/alpha3beta4 nAChR expressed in Xenopus laevis oocytes assessed as inhibition of acetylcholine-induced current response at 10 uM measured after 5 min by two-electrode voltage-clamp method relative to control. Particulars: Oocyte. It is filed as cell-based.

Some results are limits rather than exact numbers.

One may read the inhibition as the change of the read-out against control, counted positive when it falls.

Regarding `CC(C)C[C@@H]1NC(=O)[C@H](CCC(=O)O)NC(=O)[C@@H]2CCCN2C(=O)[C@H](Cc2cnc[nH]2)NC(=O)[C@H](CC(N)=O)NC(=O)[C@H](C(C)C)NC(=O)[C@H](CC(=O)O)NC(=O)[C@@H]2CSSC[C@H](NC(=O)CN)C(=O)N[C@@H](CSSC[C@@H](C(N)=O)NC1=O)C(=O)N[C@@H](CO)C(=O)N[C@@H](Cc1cnc[nH]1)C(=O)N1CCC[C@H]1C(=O)N[C@@H](C)C(=O)N2`, the inhibition was found to be 77% in [1] and 86% in experiment [3]. Further, the values for the deltalogIC50 in [2] and in [4] were above 1.9 and 2.3, respectively.

Consider `CC(C)C[C@@H]1NC(=O)[C@H](CCC(=O)O)NC(=O)[C@@H]2CCCN2C(=O)[C@H](Cc2cnc[nH]2)NC(=O)[C@H](CCCNC(=N)N)NC(=O)[C@H](C(C)C)NC(=O)[C@H](CO)NC(=O)[C@@H]2CSSC[C@H](NC(=O)CN)C(=O)N[C@@H](CSSC[C@@H](C(N)=O)NC1=O)C(=O)N[C@@H](CO)C(=O)N[C@@H](Cc1cnc[nH]1)C(=O)N1CCC[C@H]1C(=O)N[C@@H](C)C(=O)N2`, for which the deltalogIC50 in [2] is -0.9; in [4], -0.5. For the same compound, the Ratio IC50 in experiment [5] was below 2. Further, the values for the fold change (FC) in experiment [6] and in experiment [7] were 3 and 5, respectively.

With `CC(C)C[C@@H]1NC(=O)[C@H](CCC(=O)O)NC(=O)[C@@H]2CCCN2C(=O)[C@H](Cc2cnc[nH]2)NC(=O)[C@H](CC(N)=O)NC(=O)[C@H](C(C)C)NC(=O)[C@H](CO)NC(=O)[C@@H]2CSSC[C@H](NC(=O)CN)C(=O)N[C@@H](CSSC[C@@H](C(N)=O)NC1=O)C(=O)N[C@@H]([C@@H](C)O)C(=O)N[C@@H](Cc1cnc[nH]1)C(=O)N1CCC[C@H]1C(=O)N[C@@H](C)C(=O)N2`, the deltalogIC50 is above 1.9 in experiment [2] and above 3 in experiment [4]. The inhibition in experiment [3] worked out at 93%; in [8], 79%. For the same compound, the fold change (FC) in experiment [7] worked out at 5.

For the compound `CC(C)C[C@@H]1NC(=O)[C@H](CCC(=O)O)NC(=O)[C@@H]2CCCN2C(=O)[C@H](Cc2cnc[nH]2)NC(=O)[C@H](CC(N)=O)NC(=O)[C@H](C(C)C)NC(=O)[C@H](CO)NC(=O)[C@@H]2CSSC[C@H](NC(=O)CN)C(=O)N[C@@H](CSSC[C@@H](C(N)=O)NC1=O)C(=O)N[C@@H](CO)C(=O)N[C@@H](Cc1cnc[nH]1)C(=O)N1CCC[C@H]1C(=O)N[C@@H](C(C)C)C(=O)N2`, the deltalogIC50 in experiment [2] is -0.9; in [4] it was -0.3. Besides, in [5], the Ratio IC50 was below 2. The fold change (FC) in experiment [6] is below 3; in experiment [7], above 3.

As to `CC[C@H](C)[C@@H]1NC(=O)[C@H](CCC(=O)O)NC(=O)[C@@H]2CCCN2C(=O)[C@H](Cc2cnc[nH]2)NC(=O)[C@H](CC(N)=O)NC(=O)[C@H](C(C)C)NC(=O)[C@H](CO)NC(=O)[C@@H]2CSSC[C@H](NC(=O)CN)C(=O)N[C@@H](CSSC[C@@H](C(N)=O)NC1=O)C(=O)N[C@@H](CO)C(=O)N[C@@H](Cc1cnc[nH]1)C(=O)N1CCC[C@H]1C(=O)N[C@@H](C)C(=O)N2`, the figures for the deltalogIC50 in experiment [2] and in experiment [4] were -0.1 and -0.4, respectively. In [5], the Ratio IC50 was below 2. Moreover, the fold change (FC) in experiment [6] and in experiment [7] was below 3 each time.

Take `CC(C)C[C@@H]1NC(=O)[C@H](CCC(=O)O)NC(=O)[C@@H]2CCCN2C(=O)[C@H](Cc2cnc[nH]2)NC(=O)[C@H](CC(N)=O)NC(=O)[C@H](CC(=O)O)NC(=O)[C@H](CO)NC(=O)[C@@H]2CSSC[C@H](NC(=O)CN)C(=O)N[C@@H](CSSC[C@@H](C(N)=O)NC1=O)C(=O)N[C@@H](CO)C(=O)N[C@@H](Cc1cnc[nH]1)C(=O)N1CCC[C@H]1C(=O)N[C@@H](C)C(=O)N2`: the inhibition in experiment [1] was above 10%; in [9] it was 89%; in [3], 87%; in [8] it was 86%. Further, the deltalogIC50 in experiment [2] was above 1.9; in experiment [4] it was above 3.

With `CC(C)C[C@@H]1NC(=O)[C@H](CCC(=O)O)NC(=O)[C@@H]2CCCN2C(=O)[C@H](C)NC(=O)[C@H](CC(N)=O)NC(=O)[C@H](C(C)C)NC(=O)[C@H](CO)NC(=O)[C@@H]2CSSC[C@H](NC(=O)CN)C(=O)N[C@@H](CSSC[C@@H](C(N)=O)NC1=O)C(=O)N[C@@H](CO)C(=O)N[C@@H](Cc1cnc[nH]1)C(=O)N1CCC[C@H]1C(=O)N[C@@H](C)C(=O)N2`, the values for the inhibition in experiment [1] and in experiment [3] were 96% and 79%, respectively. Further, in [2], the deltalogIC50 is above 1.9. In addition, the fold change (FC) in experiment [7] stood at 3.

As for `CC(C)C[C@@H]1NC(=O)[C@H](CCC(=O)O)NC(=O)[C@@H]2CCCN2C(=O)[C@H](Cc2cnc[nH]2)NC(=O)[C@H](CC(N)=O)NC(=O)[C@H](C(C)C)NC(=O)[C@H](CO)NC(=O)[C@@H]2CSSC[C@H](NC(=O)CN)C(=O)N[C@@H](CSSC[C@@H](C(N)=O)NC1=O)C(=O)N[C@@H](CO)C(=O)N[C@@H](Cc1cnc[nH]1)C(=O)N[C@@H](C)C(=O)N[C@@H](C)C(=O)N2`, the inhibition in experiment [1] and in experiment [3] was 82% in each case. Moreover, the deltalogIC50 in experiment [2] is above 1.9; in [4], 2.5. For the same compound, the fold change (FC) in experiment [7] was 3.

Take `CC(C)C[C@@H]1NC(=O)[C@H](CCC(=O)O)NC(=O)[C@@H]2CCCN2C(=O)[C@H](Cc2cnc[nH]2)NC(=O)[C@H](CC(N)=O)NC(=O)[C@H](C(C)C)NC(=O)[C@H](CC(N)=O)NC(=O)[C@@H]2CSSC[C@H](NC(=O)CN)C(=O)N[C@@H](CSSC[C@@H](C(N)=O)NC1=O)C(=O)N[C@@H](CO)C(=O)N[C@@H](Cc1cnc[nH]1)C(=O)N1CCC[C@H]1C(=O)N[C@@H](C)C(=O)N2`: the values for the deltalogIC50 in experiment [2] and in experiment [4] were -1 and -0.5, respectively. For the same compound, in experiment [5], the Ratio IC50 is below 2. In addition, the fold change (FC) is 3 in experiment [6] and above 10 in [7].

As to `CC(C)C[C@@H]1NC(=O)[C@H](CC(=O)O)NC(=O)[C@@H]2CCCN2C(=O)[C@H](Cc2cnc[nH]2)NC(=O)[C@H](CC(N)=O)NC(=O)[C@H](C(C)C)NC(=O)[C@H](CO)NC(=O)[C@@H]2CSSC[C@H](NC(=O)CN)C(=O)N[C@@H](CSSC[C@@H](C(N)=O)NC1=O)C(=O)N[C@@H](CO)C(=O)N[C@@H](Cc1cnc[nH]1)C(=O)N1CCC[C@H]1C(=O)N[C@@H](C)C(=O)N2`, the deltalogIC50 in experiment [2] was determined as 0.6; in experiment [4], 0.3. Moreover, the fold change (FC) was below 2 in [6] and 3 in experiment [7].

With `CC(C)C[C@@H]1NC(=O)[C@H](CCC(=O)O)NC(=O)[C@@H]2CCCN2C(=O)[C@H](Cc2cnc[nH]2)NC(=O)[C@H](CC(N)=O)NC(=O)[C@H](C(C)C)NC(=O)[C@H](Cc2cnc[nH]2)NC(=O)[C@@H]2CSSC[C@H](NC(=O)CN)C(=O)N[C@@H](CSSC[C@@H](C(N)=O)NC1=O)C(=O)N[C@@H](CO)C(=O)N[C@@H](Cc1cnc[nH]1)C(=O)N1CCC[C@H]1C(=O)N[C@@H](C)C(=O)N2`, the deltalogIC50 in [2] is -0.9; in [4], -0.4. Moreover, the fold change (FC) in [6] was below 3; in experiment [7], above 3.

Regarding `CC[C@H](C)[C@@H]1NC(=O)[C@H](CCC(=O)O)NC(=O)[C@@H]2CCCN2C(=O)[C@H](Cc2cnc[nH]2)NC(=O)[C@H](CCCNC(=N)N)NC(=O)[C@H](C(C)C)NC(=O)[C@H](Cc2cnc[nH]2)NC(=O)[C@@H]2CSSC[C@H](NC(=O)CN)C(=O)N[C@@H](CSSC[C@@H](C(N)=O)NC1=O)C(=O)N[C@@H](CO)C(=O)N[C@@H](Cc1cnc[nH]1)C(=O)N1CCC[C@H]1C(=O)N[C@@H](C(C)C)C(=O)N2`, the deltalogIC50 in [2] is -1.8; in experiment [4], -1.2. Further, the fold change (FC) in [6] stood at 16; in experiment [7], 43.

With `CC(C)C[C@@H]1NC(=O)[C@H](CCC(=O)O)NC(=O)[C@@H]2CCCN2C(=O)[C@H](Cc2cnc[nH]2)NC(=O)[C@H](CC(N)=O)NC(=O)[C@H](C(C)C)NC(=O)[C@H](CO)NC(=O)[C@@H]2CSSC[C@H](NC(=O)CN)C(=O)N[C@@H](CSSC[C@@H](C(N)=O)NC1=O)C(=O)N[C@@H](CO)C(=O)N[C@@H](C)C(=O)N1CCC[C@H]1C(=O)N[C@@H](C)C(=O)N2`, the inhibition in experiment [1] was found to be 77%; in experiment [3], 78%. Besides, the figures for the deltalogIC50 in experiment [2] and in experiment [4] were above 1.9 and 3.1, respectively. In addition, the fold change (FC) in experiment [7] came out at 3.
